Results as given in paper doi:10.1101/162396.
Construct, isoform or probe ends are uncertain for at least one entry.

Columns and labels:
[1] = tested on: Norovirus group 2 capsid antigen virus-like particle (NoV VLP); experiment: fluorescence recovery from MWCNT quenching; settings: 5 uM aptamer, 0.1 mg/mL MWCNT, 129 ng/mL VLP
[2] = tested on: Norovirus group 2 capsid antigen virus-like particle (NoV VLP); experiment: fluorescence recovery from graphene oxide quenching; settings: 5 uM aptamer, 0.05 mg/mL GO, 129 ng/mL VLP

AGTATACGTATTACCTGCAGCCCATGTTTTGTAGGTGTAATAGGTCATGTTAGGGTTTCTGCGATATCTCGGAGATCTTGC [6-FAM norovirus aptamer]
binding result [1]: binds | binding result [2]: binds
